Pooled drug test results. Numbers come from NIAID ChemDB, via PubChem.

Common to all: enzyme or target tests; species: HIV-1; target: Protease; read-out: Ki

Blank or dashed fields: not listed here.

SMILES | conditions | mutations | strain or isolate | result
Cc1cnc(C(=O)Nc2ccccc2C(=O)N[C@@H](Cc2ccccc2)[C@H](O)[C@H](O)[C@H](Cc2ccccc2)NC(=O)c2ccccc2NC(=O)c2cnc(C)cn2)cn1 | - | - | - | >10 µM
O=C(NC1CCc2ccccc21)[C@H](OCc1cccc(F)c1)[C@H](O)[C@@H](O)[C@@H](OCc1cccc(F)c1)C(=O)N[C@H]1CCc2ccccc21 | - | - | - | 0.05 µM
CCC(C)[C@H](NC(=O)CCCCCCCCCCCCCCC(=O)N[C@@H](CC(N)=O)C(=O)N[C@@H](Cc1ccccc1)C(=O)O)C(=O)N[C@@H](Cc1ccc2ccccc2c1)C(N)=O | - | - | - | 0.127 µM
C[C@@H]1CCCCCCCCCCOC(=O)N(C[C@@H](O)[C@H](Cc2ccccc2)NC(=O)O[C@H]2CO[C@H]3OCC[C@H]32)C1 | - | - | - | 0.0258 µM
O=C1[C@@H](Cc2ccccc2)N(Cc2ccccc2)C(=O)N1CC(CCN1CCC(c2ccccc2)CC1)c1cccc(Cl)c1 | - | - | - | 0.002 µM
COC(=O)[C@@H](NC(=O)[C@@H](NC(=O)CC[C@H](O)[C@H](Cc1ccc(O)cc1)NC(=O)[C@H](C)NC(=O)[C@H](C)NC(=O)[C@H](CO)NC(=O)OC(C)(C)C)C(C)C)C(C)C | - | - | - | 0.18 µM
CCC(=O)c1cccc(CN2C(=O)N(Cc3cccc(C(=O)CC)c3)[C@H](Cc3ccccc3)[C@H](O)[C@@H](O)[C@H]2Cc2ccccc2)c1 | - | - | RF | 0.00021 µM
CC[C@H](C)[C@H](NC(=O)[C@@H](C[C@H](O)[C@H](CC1CCCCC1)NC(=O)CC(C)(C)C)C(C)C)C(=O)NCc1ccccn1 | - | - | - | 0.07 µM
CC(C)[C@H](NC(=O)[C@@H](NC(=O)C1CCCC1P(=O)(O)C(NC(=O)OCc1ccccc1)c1ccccc1)C(C)C)C(N)=O | pH 6.5 | - | - | >100 µM
C/C(=N\O)c1cccc(CN2[C@H](COc3ccccc3)[C@H](O)[C@@H](O)[C@@H](COc3ccccc3)N(Cc3cccc(/C(C)=N/O)c3)S2(=O)=O)c1 | - | - | - | 0.059 µM
CC(C)C[C@@H](N)C(=O)N[C@H](CC(=O)O)C(=O)N[C@H](CCC(=O)O)C(=O)O | - | - | - | >2000 µM
COc1ccc(S(=O)(=O)N(CC2CCCC2)C[C@@H](O)CN2C(=O)[C@@H](Cc3ccccc3)C[C@@H]2Cc2ccccc2)cc1 | - | - | - | 0.005 µM
CCC(C)[C@H](NC(=O)[C@H](C(C)C)[C@@H](O)[C@H](O)[C@H](CC1CCCCC1)NC(=O)c1ccccc1SCCCCC[C@@H]1SC[C@@H]2NC(=O)NC21)C(=O)NCc1ccccn1 | - | - | - | 0.01 µM
O=S1(=O)N(Cc2ccc(CO)cc2)[C@H](COc2ccccc2)[C@H](O)[C@@H](O)[C@@H](COc2ccccc2)N1Cc1ccc(CO)cc1 | - | PR-G48V L90M | - | 0.0082 µM
CSC[C@H](NC(=O)COc1cccc2cnccc12)C(=O)N[C@@H](Cc1ccccc1)[C@H](O)C(=O)N1CSC(C)(C)[C@H]1C(=O)NC(C)(C)C | - | - | - | 0.0000023 µM
O=C1C(=O)N(Cc2ccccc2)C(Sc2ccccc2)C(O)C(Sc2ccccc2)N1Cc1ccccc1 | - | - | - | 0.5 µM
Cc1cc(SC2=C(O)C[C@@](CCc3ccc(N)cc3)(C(C)C)OC2=O)c(C(C)(C)C)cc1CO | - | - | - | 0.0001 µM
CC(C)[C@H](NC(=O)[C@@H](NC(=O)C1CCCC1P(=O)(O)C(Cc1ccccc1)NC(=O)OCc1ccccc1)C(C)C)C(N)=O | pH 4.5 | - | - | 0.005 µM
CC(C)CNC(=O)[C@H](Cc1ccccc1)NCC(O)[C@@H]1Cc2ccc(cc2)OCCCC(=O)N[C@@H](CC(N)=O)C(=O)N1 | - | - | - | 0.8 µM
O=C1N(Cc2cccc(O)c2)[C@H](CCc2ccccc2)[C@@H](CCc2ccccc2)N1Cc1cccc(O)c1 | - | - | - | 0.055 µM
CC[C@H](C)[C@H](NC(=O)[C@@H](C[C@H](O)[C@H](CC(C)C)NC(=O)[C@H](C)NC(=O)[C@H](CCC(N)=O)NC(=O)[C@H](CO)NC(=O)[C@@H](N)C(C)C)C(C)C)C(=O)N[C@H](C(=O)O)C(C)C | - | - | - | <0.01 µM
O=C1N(CC2CC2)CC[C@@H](O)[C@@H](Cc2ccccc2)N1CC1CC1 | - | - | - | >12.5 µM
O=C1N(Cc2cccnc2)[C@H](Cc2ccccc2)[C@H](O)[C@@H](O)[C@@H](Cc2ccccc2)N1Cc1cccc(-c2ccn[nH]2)c1 | - | - | RF | 0.00017 µM
O=c1oc(-c2ccccc2)cc(O)c1Sc1ccccc1 | - | - | - | ~1 µM
O=C1N(Cc2cccc(-c3ccn[nH]3)c2)[C@H](Cc2ccccc2)[C@H](O)[C@@H](O)[C@@H](Cc2ccccc2)N1Cc1cccc(-c2ccn[nH]2)c1 | - | - | RF | 0.000027 µM
O=C1NCC[C@@H](O)[C@@H](Cc2ccccc2)N1 | - | - | - | >12.5 µM
CC[C@H](C)[C@H](NC(=O)[C@@H]1CCCN1C(=O)C(=O)C(Cc1ccccc1)NC(=O)OCc1ccccc1)C(=O)N[C@@H](CCC(N)=O)C(=O)OC(C)(C)C | - | - | - | 0.15 µM
COC(=O)CCCC[C@H]1[C@@H]2[C@H](CS1(=O)=O)N(Cc1cccc(Br)c1)C(=O)N2Cc1cccc(Br)c1 | - | - | - | 4.1 µM
Cc1c(O)cccc1C(=O)N[C@@H](Cc1ccccc1)[C@H](O)C(=O)N1CSC(C)(C)[C@H]1C(=O)NC(C)(C)C | - | - | IIIB | 0.0514 µM
O=C1N[C@H](Cc2ccccc2)[C@H](O)[C@@H](O)[C@@H](Cc2ccccc2)N1 | - | - | - | 3 µM
C=C1[C@@H](C)[C@H]2[C@H](Cc3ccccc3)NC(=O)[C@]23[C@H](OC(C)=O)/C=C/[C@@H](C)C[C@@H](C)C/C=C/[C@H]3[C@@H]1O | - | - | - | 1 µM
CNC(=O)[C@@H](NC(=O)[C@H](OCc1ccccc1)[C@H](O)[C@@H](O)[C@@H](OCc1ccccc1)C(=O)N[C@H]1c2ccccc2C[C@H]1O)C(C)C | - | PR-I84V | - | 0.00034 µM
O=C1N(Cc2cccc(/C(=N\O)C(F)(F)F)c2)[C@H](Cc2ccccc2)[C@H](O)[C@@H](O)[C@@H](Cc2ccccc2)N1Cc1cccc(/C(=N\O)C(F)(F)F)c1 | - | - | RF | 0.0039 µM
CC(C)(C)[C@H](NC(=O)OCc1nc2ccccc2[nH]1)C(=O)N[C@@H](Cc1ccccc1)[C@H](O)[C@@H](CO)[C@H](Cc1ccccc1)NC(=O)[C@@H](NC(=O)OCc1nc2ccccc2[nH]1)C(C)(C)C | - | - | - | 0.34 µM
CC(C)CCCC(C)CCN1C(=O)N(CCC(C)CCCC(C)C)[C@H](Cc2ccccc2)[C@H](O)[C@@H](O)C1Cc1ccccc1 | - | - | - | 0.15 µM
O=C1N[C@H](Cc2c[nH]c3ccccc23)C(=O)N1CC(CCN1CCC(c2ccccc2)CC1)c1cccc(Cl)c1 | - | - | - | 0.027 µM
O=S1(=O)N(Cc2cccc(-c3cccs3)c2)[C@H](COc2ccccc2)[C@H](O)[C@@H](O)[C@@H](COc2ccccc2)N1Cc1cccc(-c2cccs2)c1 | - | PR-I84V | - | 83 µM
Cc1cc(SC2=C(O)CC(CCc3ccccc3)(c3ccccc3)OC2=O)c(C(C)(C)C)cc1CO | pH 6.2 | - | - | 0.00009 µM
CC(C)[C@H](NC(=O)OCc1ccccc1)C(=O)N[C@@H](Cc1ccccc1)[C@@H](O)[C@H](O)[C@H](Cc1ccccc1)NC(=O)[C@@H](NC(=O)OCc1ccccc1)C(C)C | - | - | - | 0.001 µM
CS(=O)(=O)Nc1cccc(C(c2c(O)c3c(oc2=O)CCCCCC3)C2CC2)c1 | - | - | - | 0.011 µM
CC(C)CCC(O)C1(Cc2ccccc2)CS(=O)CC(CO)(Cc2ccccc2)C1O | - | - | - | <25 µM
O=C(N[C@H]1c2ccccc2C[C@H]1O)[C@H](Cc1ccccc1)C[C@H](O)CN1C(=O)[C@@H](Cc2ccccc2)C[C@@H]1Cc1ccccc1 | - | - | - | 0.00005 µM
COC(=O)c1cccc(CN2C(=O)C(=O)N(Cc3cccc(C(=O)OC)c3)[C@H](Cc3ccccc3)C(O)[C@H]2Cc2ccccc2)c1 | - | - | - | 0.04 µM
O=C(NC(Cc1ccccc1)P(=O)(O)CC(Cc1ccccc1)C(=O)O)c1ccccc1 | pH 6.5 | - | - | 26 µM
O=S1C[C@](CO)(Cc2ccccc2)C(O)[C@@](CO)(Cc2ccccc2)C1 | - | - | - | 7 µM
O=S1(=O)N(Cc2cccc(I)c2)[C@H](COc2ccccc2)[C@H](O)[C@@H](O)[C@@H](COc2ccccc2)N1Cc1cccc(I)c1 | - | - | - | 0.0125 µM
CC(C)CN(C[C@@H](O)[C@H](Cc1ccccc1)NC(=O)O[C@H]1CO[C@H]2OCC[C@H]21)S(=O)(=O)c1ccc(C(N)=O)cc1 | - | - | - | 0.0000089 µM
O=C(NCc1ccc2c(c1)[C@H](O)[C@@H](O)c1cc(CNC(=O)OCc3ccccc3)ccc1C2=O)OCc1ccccc1 | - | - | - | 0.005 µM
CC(C)(C)NC(=O)c1ccccc1C[C@@H](O)[C@H](CSc1ccccc1)NC(=O)[C@H](CC(N)=O)NC(=O)Oc1ccc2ccccc2n1 | - | - | - | >12.5 µM
COC(=O)[C@@H](NC(=O)[C@@H](NC(=O)[C@@H]1CCCC1P(=O)(O)[C@H](Cc1ccccc1)NC(=O)[C@H](C)NC(=O)[C@H](C)NC(=O)[C@@H](N)CO)C(C)C)C(C)C | - | - | - | 4 µM
Cc1ccccc1CNC(=O)[C@H]1N(C(=O)[C@@H](O)[C@H](Cc2ccccc2)NC(=O)c2cccc(O)c2C)CSC1(C)C | - | - | - | 0.000035 µM
CC(C)(C)[C@H](NC(=O)OCc1nc2ccccc2[nH]1)C(=O)N[C@@H](Cc1ccccc1)[C@@H](O)[C@H](CO)[C@H](Cc1ccccc1)NC(=O)[C@@H](NC(=O)OCc1nc2ccccc2[nH]1)C(C)(C)C | - | - | - | 0.29 µM
CC(C)NC(=O)[C@H](Cc1ccccc1)NCC(O)[C@@H]1Cc2ccc(cc2)OCCCC(=O)N[C@@H](CC(N)=O)C(=O)N1 | - | - | - | 6.2 µM
CC(C)(C)NC(=O)[C@H]1N(C(=O)[C@@H](O)[C@H](Cc2ccccc2)NC(=O)[C@H](CC(N)=O)NC(=O)COc2cccc3ccccc23)CSC1(C)C | - | - | - | 0.0000068 µM
O=C1N(Cc2ccc(O)cc2)[C@H](Cc2ccccc2)[C@H](O)[C@@H](O)[C@@H](Cc2ccccc2)N1Cc1cccc(-c2ccn[nH]2)c1 | - | - | RF | 0.000021 µM
CC(C)(C)[C@H](NC(=O)OCCc1nc2ccccc2[nH]1)C(=O)N[C@@H](Cc1ccccc1)[C@@H](O)[C@H](CO)[C@H](Cc1ccccc1)NC(=O)[C@@H](NC(=O)OCCc1nc2ccccc2[nH]1)C(C)(C)C | - | - | - | 0.43 µM

Rows are shuffled and stem from different studies.